This is an account of results in article PMC5803236 (Scientific Reports, 2018).

The subject of this data set is hemagglutinin (HA) of H9N2 A/Chicken/Korea/MS96/1996. Type of data set: cell-based, Influenza A virus.

In brackets after ≈: the same amount, converted by molar mass.

On to `CC(=O)N[C@H]1[C@H]([C@H](O)[C@H](O)CO)O[C@@](O[C@H]2[C@@H](O)[C@@H](CO)O[C@@H](O[C@H]3[C@H](O)[C@@H](O)C(O)O[C@@H]3CO)[C@@H]2O)(C(=O)O)C[C@@H]1O` (some centres unmarked) [3′-sialyllactose], for which the MIC is 15.62 mM (≈ 9.9 mg/mL).

In turn, `CC(=O)N[C@H]1[C@H]([C@H](O)[C@H](O)CO)O[C@@](OC[C@H]2O[C@@H](O[C@H]3[C@H](O)[C@@H](O)C(O)O[C@@H]3CO)[C@H](O)[C@@H](O)[C@H]2O)(C(=O)O)C[C@@H]1O` (some centres unmarked) [6′-sialyllactose] had an MIC above 200 mM.
